Assay results reported in article PMC9687286, “Hydrophobic Rose Bengal Derivatives Exhibit Submicromolar-to-Subnanomolar Activity against Enveloped Viruses” (Biomolecules, 2022).
Where a name gives a salt, the structure may show the parent alone.

How the values were obtained:
Type in all cases: cell-based
Settings in all cases: ratio CC50 / EC50
SARS-CoV-2 strain PIK35 = tested on: SARS-CoV-2 strain PIK35
CHIKV strain Nic = tested on: CHIKV strain Nic
HIV-1 strain NL4-3 = tested on: HIV-1 strain NL4-3

Structure (SMILES) | SI, SARS-CoV-2 (SARS-CoV-2 strain PIK35) | SI, CHIKV (CHIKV strain Nic) | SI, HIV (HIV-1 strain NL4-3)
CCCCOC(=O)c1c(Cl)c(Cl)c(Cl)c(Cl)c1-c1c2cc(I)c(=O)c(I)c-2oc2c(I)c(O)c(I)cc12 [2a, Rose Bengal N-Butyl Ester, Monosodium Salt] | 169 | 1860 | 2.4
CCCCCCOC(=O)c1c(Cl)c(Cl)c(Cl)c(Cl)c1-c1c2cc(I)c(=O)c(I)c-2oc2c(I)c(O)c(I)cc12 [2b, Rose Bengal N-Hexyl Ester, Monosodium Salt] | 146 | 90,909 | 3.4
CCCCCCCCOC(=O)c1c(Cl)c(Cl)c(Cl)c(Cl)c1-c1c2cc(I)c(=O)c(I)c-2oc2c(I)c(O)c(I)cc12 [2c, Rose Bengal N-Octyl Ester, Monosodium Salt] | 10 | – | 4.8
CCCCCCCCCCOC(=O)c1c(Cl)c(Cl)c(Cl)c(Cl)c1-c1c2cc(I)c(=O)c(I)c-2oc2c(I)c(O)c(I)cc12 [2d, Rose Bengal N-Decyl Ester, Monosodium Salt] | 9 | 28,571 | 4.8
CCCCCCCCCCCCOC(=O)c1c(Cl)c(Cl)c(Cl)c(Cl)c1-c1c2cc(I)c(=O)c(I)c-2oc2c(I)c(O)c(I)cc12 [2e, Rose Bengal N-Dodecyl Ester, Monosodium Salt] | >2 | >2632 | –
Cc1cn([C@H]2C[C@H](N=[N+]=[N-])[C@@H](CO)O2)c(=O)[nH]c1=O [AZT, azidothymidine, reference compound] | – | – | >455
O=c1nc(NO)ccn1[C@@H]1O[C@H](CO)[C@@H](O)[C@H]1O [NHC, N^4-hydroxycytidine, reference compound] | >21 | >4 | –
O=C(O)c1c(Cl)c(Cl)c(Cl)c(Cl)c1-c1c2cc(I)c(=O)c(I)c-2oc2c(I)c(O)c(I)cc12 [compound 1, Rose Bengal, disodium salt, reference compound] | 91 | 391 | >3
